Results of unrelated studies side by side (data: NIAID ChemDB).

All rows: whole-cell or culture tests; species: Mycobacterium avium complex; endpoint: MIC

Neighbouring rows are from separate reports.

compound,strain,result
Clc1ccccc1Sc1ncnc2nc[nH]c12,NJ211,>12.8 µg/mL
CCCCCCCCCCO/N=C1\[C@H](C)CC(C)(O)[C@H](O[C@@H]2O[C@H](C)C[C@H](N(C)C)[C@H]2O)[C@@H](C)[C@H](OC2C[C@@](C)(OC)[C@@H](O)[C@H](C)O2)[C@@H](C)C(=O)O[C@H](CC)[C@@](C)(O)[C@H](O)[C@H]1C,20039 (clarithromycin-susceptible),12.5 µg/mL
Cc1ccc(Sc2ccncc2)cc1,NJ211,>12.8 µg/mL
CC[C@H]1OC(=O)[C@H](C)[C@@H](OC(=O)Cc2ccccn2)[C@H](C)[C@@H](O[C@@H]2O[C@H](C)C[C@H](N(C)C)[C@H]2O)C(C)(O)C[C@@H](C)/C(=N\OCCCOc2ccccc2)[C@H](C)[C@@H](O)[C@]1(C)O,20039 (clarithromycin-susceptible),3.13 µg/mL
COc1cccc(Sc2nc(Cl)nc3nc[nH]c23)c1,NJ211,>12.8 µg/mL
CC[C@H]1OC(=O)[C@H](C)[C@@H](O[C@H]2C[C@@](C)(OC)[C@@H](OC(C)=O)[C@H](C)O2)[C@H](C)[C@@H](O[C@@H]2O[C@H](C)C[C@H](N(C)C)[C@H]2O)C(C)(O)C[C@@H](C)/C(=N\OCc2ccccc2)[C@H](C)[C@@H](O)[C@]1(C)O,20092 (clarithromycin-resistant),25 µg/mL
COc1ccc(Sc2ccncc2)cc1OC,NJ211,>12.8 µg/mL
CC1(C)N=C(N)N=C(N)N1OCCCOc1cc(Cl)c(Cl)cc1Cl,9141,1 µg/mL
CC[C@H]1OC(=O)[C@H](C)[C@@H](O[C@H]2C[C@@](C)(OC)[C@@H](O)[C@H](C)O2)[C@H](C)[C@@H](O[C@@H]2O[C@H](C)C[C@H](N(C)C)[C@H]2O)[C@](C)(OC)C[C@@H](C)C(=O)[C@H](C)[C@@H](O)[C@]1(C)O,N-238 (HIV-),4 µg/mL
CC(C)N=C(N)/N=C(\N)NOCCCOc1cc(Cl)c(Cl)cc1Cl,800,64 µg/mL
CO[C@H]1/C=C/O[C@@]2(C)Oc3c(C)c(O)c4c(=O)c(c5oc6cc(N7CCN(CC(C)C)CC7)cc(=O)c6nc5c4c3=C2O)NC(=O)/C(C)=C\C=C\[C@H](C)[C@H](O)[C@@H](C)[C@@H](O)[C@@H](C)[C@H](OC(C)=O)[C@@H]1C,N-966 (HIV+),0.0313 µg/mL
CC[C@H]1OC(=O)[C@H](C)[C@@H](OC(=O)CCCc2ccccc2)[C@H](C)[C@@H](O[C@@H]2O[C@H](C)C[C@H](N(C)C)[C@H]2O)C(C)(O)C[C@@H](C)/C(=N\OCCCOc2ccccc2)[C@H](C)[C@@H](O)[C@]1(C)O,20039 (clarithromycin-susceptible),6.25 µg/mL
O=c1nc(SCc2cccc3ccccc23)c2[nH]cnc2[nH]1,NJ211,>12.8 µg/mL
CN[C@@H]1[C@H](O[C@H]2[C@H](O[C@H]3[C@H](O)[C@@H](O)[C@H](N=C(N)N)[C@@H](O)[C@@H]3N=C(N)N)O[C@@H](C)[C@]2(O)C=O)O[C@@H](CO)[C@H](O)[C@H]1O,N-314 (HIV-),4 µg/mL
C/C(=N\NC(N)=S)c1cccnc1,100,0.5 µg/mL
CO[C@H]1/C=C/O[C@@]2(C)Oc3c(C)c(O)c4c(O)c(c5c(c4c3C2=O)NC2(CCN(CC(C)C)CC2)N=5)=NC(=O)/C(C)=C\C=C\[C@H](C)[C@H](O)[C@@H](C)[C@@H](O)[C@@H](C)[C@H](OC(C)=O)[C@@H]1C,N-945 (HIV+),0.4 µg/mL
CCc1nc(N)nc(N)c1-c1ccc(Cl)cc1,DW28,32 µg/mL

2 of the rows above, restated:

compound	strain	result
CC1(C)N=C(N)N=C(N)N1OCCCOc1cc(Cl)c(Cl)cc1Cl	9141	1 µg/mL
COc1ccc(Sc2ccncc2)cc1OC	NJ211	>12.8 µg/mL